Results of unrelated studies side by side (data: NIAID ChemDB).

All rows: tests in culture; agent: Mycobacterium tuberculosis

An empty or dashed field is not shown. MIC50, MIC90 and the like: level of inhibition, or share of isolates inhibited. Lines come from different laboratories, so protocols vary. Inhibition is in % at the dose shown (toxicity tests: loss of growth or viability). MIC bound: limit read from a one-dose screen.

compound	conditions	tested at	measure	strain	mutations	read by	result
O=C(O)c1cn(C2CC2)c2c(F)c(N3CCSCC3)c(F)cc2c1=O			MIC	CSU11			2 µg/mL
COc1cc(C(O)C2C(=O)OCC2C2(c3ccc4c(c3)OCO4)SCCCS2)cc(OC)c1OC		12.5 µg/mL	inhibition	H37Rv		BACTEC	-6%
O=C(Cc1cccs1)N/N=C/c1ccc(O)c(Cl)c1			MIC	H37Rv (ATCC 27294)		resazurin	169.6 µM
COC(C)(C)c1cc(C(C)(C)C)c(O)c(C(C)(C)C)c1		6.25 µg/mL	inhibition	H37Rv		BACTEC	85%
CO[C@H]1/C=C/O[C@@]2(C)Oc3c(C)c(O)c4c(O)c(c(/C=N/N5CCN(C6CCCC6)CC5)c(O)c4c3C2=O)NC(=O)/C(C)=C\C=C\[C@H](C)[C@H](O)[C@@H](C)[C@@H](O)[C@@H](C)[C@H](OC(C)=O)[C@@H]1C			MIC	1023			0.04 µg/mL
COc1ccc(Sc2ncccn2)cc1			MIC	H37Ra			>12.8 µg/mL
NNC(=O)c1ccncc1			MIC50	ATCC 27294			0.2 µM
COc1ccc(/C=N/NC(=O)Cc2cccs2)cc1			MIC	H37Rv (ATCC 27294)		resazurin	>100 µg/mL
Fc1ccc(-c2c(C(c3ccccc3)n3ccnc3)cnn2-c2ccc(F)cc2F)cc1			MIC50	ATCC 35828 (pyrazinamide-resistant)			≥100 µM
COC(=O)C(CO)NC(=O)C(Cc1ccccc1)NC(=O)OC(C)(C)C			MIC bound	H37Rv		BACTEC	>12.8 µg/mL
Cc1ccc(Sc2nc(Cl)nc3nc[nH]c23)cc1			MIC90	H37Rv			>6.25 µg/mL
O=C(/C=C/c1ccc(F)cc1)c1ccc(O)cc1	7 d		MIC	H37Rv		resazurin	32 µg/mL
O=C(Oc1ccc(Br)cc1C(=O)Nc1ccc(C(F)(F)F)cc1)c1cnccn1	21 d		MIC	multidrug resistant 9449/2006			0.5 µM
CC(=O)NC1C(O)OC(CO)C(OC2OC(CO)C(O)C(O)C2NC(=O)NCCCCCCNC(=O)n2cc(F)c(=O)[nH]c2=O)C1O			MIC bound	H37Rv		BACTEC	>12.5 µg/mL
CC1COc2c(N3CCN(C)CC3)c(F)cc3c(=O)c(C(=O)O)cn1c23			MIC90	ATCC 35837 (ethambutol-resistant)			2.9 µM
COC(=O)[C@@H]1CC(O)CN1C(=O)c1c2nc3c(C(=O)N4CC(O)C[C@H]4C(=O)OC)ccc(C)c3oc-2c(C)c(=O)c1N		12.5 µg/mL	inhibition	H37Rv		BACTEC	0%
NNC(=O)c1ccncc1			MIC	MDR-2037 (MDR)			3.2 µg/mL
CC(C)=CC/C(C)=C/CNCCNC(c1ccccc1)c1ccccc1			MIC				12.5 µM
CCc1nc2ccc(C)cc2n1CCCCSc1ccc(OC)cc1			MIC99	H37Rv		turbidity / fluorescence	2.3 µM
CCC(C)(C)NCCNCC1(O)CCCCC1			MIC				50 µM
CO[C@H]1/C=C/O[C@@]2(C)Oc3c(C)c(O)c4c(=O)c(c5oc6cc(N7CCN(CC(C)C)CC7)cc(=O)c6nc5c4c3=C2O)NC(=O)/C(C)=C\C=C\[C@H](C)[C@H](O)[C@@H](C)[C@@H](O)[C@@H](C)[C@H](OC(C)=O)[C@@H]1C	inside macrophages	10 µg/mL	inhibition	Watanabe			32.9%
C[C@@H]1CN(c2c(F)c(N)c3c(=O)c(C(=O)O)cn(C4CC4)c3c2F)C[C@H](C)N1			MIC	S-2M (susceptible)			0.2 µg/mL
Clc1ccc(-c2c(C(c3ccccc3)n3ccnc3)cnn2-c2ccc(Cl)cc2)cc1			MIC90	ATCC 35822 (isoniazid-resistant)			≥100 µM
CCOC(=O)c1oc2ccc(OC)c3c2c1CCC3			MIC bound	H37Rv		BACTEC	>12.5 µg/mL
COc1ccc(CSc2ncccn2)cc1			MIC90	H37Rv			>6.25 µg/mL
C1CCCC(NCCNC2CCCCCCC2)CCC1			MIC				12.5 µM
Cc1ccccc1C(C#N)/C(=N/NC(=O)C(=O)NN)C(=O)Nc1cccc(C(F)(F)F)c1			MIC bound	H37Rv		BACTEC	>12.5 µg/mL
C[C@@H]1CN(c2c(F)c(N)c3c(=O)c(C(=O)O)cn(C4CC4)c3c2F)C[C@H](C)N1			MIC	CSU22			≤0.125 µg/mL
Cc1nccn1CCCCOc1ccc(Cl)cc1			MIC99	H37Rv		turbidity / fluorescence	>20 µM
O=C(Cc1cccs1)N/N=C/c1cccnc1			MIC	H37Rv (ATCC 27294)		resazurin	>100 µg/mL
O=C(/C=C/c1ccc(F)cc1Cl)c1ccc(F)cc1	14 d		MIC	H37Rv		resazurin	32 µg/mL
Cn1c(=O)c2c(nc3n2C(CCl)CO3)n(C)c1=O			MIC bound	H37Rv		resazurin	>6.25 µg/mL
COc1ccccc1Sc1ncccn1			MIC90	H37Rv			>6.25 µg/mL
NNC(=O)c1ccncc1			MIC	Erdman			≤0.125 µg/mL
COc1ccc(N=C2C(=Nc3ccc(OC)cc3)N(c3ccccc3)C(=S)N2N=C=C2Sc3ccccc3N2C)cc1		12.5 µg/mL	inhibition	H37Rv		BACTEC	5%
O=C(/C=C/c1ccccc1Cl)c1ccc(F)cc1	14 d		MIC	H37Rv		MTT	32 µg/mL
Clc1ccccc1C(c1ccccc1)(c1ccccc1)n1ccnc1			MIC50	ATCC 35820 (streptomycin-resistant)			≥100 µM
O=C(Oc1ccc(Cl)cc1C(=O)Nc1ccc(C(F)(F)F)cc1)c1cnccn1	14 d		MIC	multidrug resistant 9449/2006			0.125 µM
CC[C@H]1OC(=O)[C@H](C)[C@@H](O[C@H]2C[C@@](C)(OC)[C@@H](O)[C@H](C)O2)[C@H](C)[C@@H](O[C@@H]2O[C@H](C)C[C@H](N(C)C)[C@H]2O)[C@](C)(OC)C[C@@H](C)C(=O)[C@H](C)[C@@H](O)[C@]1(C)O			MIC90	23 strains (rifampin- isoniazid-susceptible)			50 µg/mL
O=C(Cc1cccs1)N/N=C/c1ccccc1Br			MIC	H37Rv (ATCC 27294)		resazurin	>100 µg/mL
Cc1cc(-c2cc3c(cc2F)c(=O)c(C(=O)O)cn3C2CC2)cc(C)n1			MIC	1024-8			0.5 µg/mL
NC(=O)c1cnccn1			MIC	CDC72 niacin-positive			8 µg/mL
COC(=O)[C@]1(C)CCC[C@]2(C)C3=CC(O)[C@@]4(C(C)C)O[C@H]4[C@]3(O)CC[C@@H]12		12.5 µg/mL	inhibition	H37Rv		BACTEC	30%
O=c1nc(SCc2ccc(F)cc2)c2[nH]cnc2[nH]1			MIC90	H37Rv			>6.25 µg/mL
COC(=O)c1c2oc3c(C(=O)OC)cccc3nc-2cc(N)c1=O			MIC bound	H37Rv		BACTEC	>12.5 µg/mL
CCc1nc2ccccc2n1CCCCOc1ccc(Cl)cc1C			MIC90	H37Rv	WT	turbidity / fluorescence	13 µM
O=C(Oc1ccc(Cl)cc1C(=O)Nc1ccc(Cl)c(Cl)c1)c1cnccn1	21 d		MIC	multidrug resistant Praha 1			0.5 µM
CCC1CCCCN1CCNCCC(c1ccccc1)c1ccccc1			MIC				25 µM
COC1CCCC2OC3(OC)C(OC)CCCC3OC12OC			MIC bound	H37Rv		BACTEC	>12.5 µg/mL
C[C@@H]1CN(c2c(F)c(N)c3c(=O)c(C(=O)O)cn(C4CC4)c3c2F)C[C@H](C)N1			MIC	890902			0.2 µg/mL
COc1ccc(C(=O)/C=C/c2ccc(F)cc2)cc1F	7 d		MIC	H37Rv		MTT	128 µg/mL
CN[C@@H]1[C@H](O[C@H]2[C@H](O[C@H]3[C@H](O)[C@@H](O)[C@H](N=C(N)N)[C@@H](O)[C@@H]3N=C(N)N)O[C@@H](C)[C@]2(O)C=O)O[C@@H](CO)[C@H](O)[C@H]1O			MIC90	ATCC 35822 (isoniazid-resistant)			0.3 µM
NC(=O)C1(c2ccccc2)Nc2ccccc2S1			MIC bound	H37Rv		BACTEC	>12.5 µg/mL
O=C(Oc1cc(Cl)ccc1C(=O)Nc1ccc(F)cc1)c1cnccn1	21 d		MIC	H37Rv 331/88			8 µM
Cc1cc2c(cc1C)[n+](=O)cc(C(=O)C/C(=N\NC(=S)NN)C(=O)Nc1cccc(C(F)(F)F)c1)n2[O-]		12.5 µg/mL	inhibition	H37Rv		BACTEC	14%
Clc1ccc(-n2ncc(C(c3ccccc3)n3ccnc3)c2-c2ccccc2)c(Cl)c1			MIC90	ATCC 27294			29.3 µM
COC(=O)N1C=CC2=C(C)C3Nc4ccccc4C3C(C)=C2C1			MIC bound	H37Rv		resazurin	<6.25 µg/mL
O=C(/C=C/c1c(F)cccc1Cl)c1ccc(F)cc1	14 d		MIC	H37Rv		MTT	64 µg/mL
CC1CN(c2c(F)cc3c(=O)c(C(=O)O)cn(C4CC4)c3c2F)CCN1			MIC	Strain 24			0.25 µg/mL
CC1(C)N=CN=C(N)N1c1ccc(CCC(=O)Nc2ccc(S(=O)(=O)F)cc2)c(Cl)c1.CCS(=O)(=O)O			MIC	H37Rv		resazurin	12.5 µg/mL
Clc1ccc(-c2c(C(c3ccccc3)n3ccnc3)cnn2-c2ccccc2)cc1			MIC50	ATCC 35828 (pyrazinamide-resistant)			≥100 µM
CCCCCCCCSc1nc(Cl)nc2nc[nH]c12		6.25 µg/mL	inhibition	H37Rv			48%
CCOC(=O)C(=CNc1ccc(N(C2=NCC(C)S2)c2ccc(F)c(Cl)c2)cc1)C(=O)OCC			MIC bound	H37Rv		resazurin	>6.25 µg/mL
O=C(Oc1ccc(Cl)cc1C(=O)Nc1ccc(F)cc1)c1cnccn1	14 d		MIC	H37Rv 331/88			4 µM
O=C(NC(=O)c1ccc(Cl)cc1)Nc1ccc(Cl)cc1C(F)(F)F		12.5 µg/mL	inhibition	H37Rv		BACTEC	0%
CCc1nc2ccccc2n1CCCCOc1ccccc1Cl			MIC90	H37Rv	WT	turbidity / fluorescence	7.7 µM
O=C(/C=C/c1ccccc1Cl)c1ccccc1	21 d		MIC	H37Rv		resazurin	32 µg/mL
Cc1c(N2C[C@@H](N)C3(CC3)C2)c(F)c(N)c2c(=O)c(C(=O)O)cn(C3CC3)c12			MIC90	23 strains (rifampin- isoniazid-susceptible)			0.78 µg/mL
Cc1ccc(Sc2nc(Cl)nc3nc[nH]c23)cc1C			MIC	H37Ra			>12.8 µg/mL
O=C(Oc1cc(Cl)ccc1C(=O)Nc1ccc(C(F)(F)F)cc1)c1cnccn1	21 d		MIC	H37Rv 331/88			1 µM
Clc1ccc(-n2ncc(C(c3ccccc3)n3ccnc3)c2-c2ccccc2Cl)c(Cl)c1			MIC50	ATCC 35822 (isoniazid-resistant)			23.9 µM
c1ccc(NCCNCCNC2CCCCCCC2)cc1			MIC				50 µM
CCCCCCCSCC1C(=O)C23C(O)C1CCC2C12COC3(O)C(O)C1C(C)(C)CCC2O			MIC bound	H37Rv		BACTEC	>12.5 µg/mL
C[C@@H]1[C@H]2C[C@@H](C[C@H]1NCCN[C@H]1C[C@H]3CC[C@]1(C)C3(C)C)C2(C)C			MIC				12.5 µM
COc1c(N2CCNC(C)C2)c(F)cc2c(=O)c(C(=O)O)cn(C3CC3)c12			MIC90	18 strains (levofloxacin-resistant)			3.13 µg/mL
C=CCN(CCNC(C)Cc1ccc(Cl)cc1)C1CCCC1			MIC				50 µM
CO[C@H]1/C=C/O[C@@]2(C)Oc3c(C)c(O)c4c(=O)c(c5oc6cc(N7CCN(CC(C)C)CC7)cc(=O)c6nc5c4c3=C2O)NC(=O)/C(C)=C\C=C\[C@H](C)[C@H](O)[C@@H](C)[C@@H](O)[C@@H](C)[C@H](OC(C)=O)[C@@H]1C			MIC	H37RV-PLN-2			≤0.015 µg/mL
OC[C@H](Cc1ccc(Cl)cc1)NCCNCCc1ccc(Cl)cc1Cl			MIC				25 µM
COc1cccc(Sc2ccncc2)c1			MIC90	H37Rv			>6.25 µg/mL
CCOC(=O)CNc1ccc(C)c(F)c1		12.5 µg/mL	inhibition	H37Rv		BACTEC	0%
CC1CCCC(NCCNC[C@@H]2CC[C@H]3C[C@@H]2C3(C)C)C1C			MIC				6.25 µM

7 of the rows above, restated:

Clc1ccc(-c2c(C(c3ccccc3)n3ccnc3)cnn2-c2ccccc2)cc1 ; measure: MIC50 ; strain: ATCC 35828 (pyrazinamide-resistant) ; result: ≥100 µM
CC[C@H]1OC(=O)[C@H](C)[C@@H](O[C@H]2C[C@@](C)(OC)[C@@H](O)[C@H](C)O2)[C@H](C)[C@@H](O[C@@H]2O[C@H](C)C[C@H](N(C)C)[C@H]2O)[C@](C)(OC)C[C@@H](C)C(=O)[C@H](C)[C@@H](O)[C@]1(C)O ; measure: MIC90 ; strain: 23 strains (rifampin- isoniazid-susceptible) ; result: 50 µg/mL
NNC(=O)c1ccncc1 ; measure: MIC50 ; strain: ATCC 27294 ; result: 0.2 µM
C[C@@H]1CN(c2c(F)c(N)c3c(=O)c(C(=O)O)cn(C4CC4)c3c2F)C[C@H](C)N1 ; measure: MIC ; strain: S-2M (susceptible) ; result: 0.2 µg/mL
COC(=O)C(CO)NC(=O)C(Cc1ccccc1)NC(=O)OC(C)(C)C ; measure: MIC bound ; strain: H37Rv ; read by: BACTEC ; result: >12.8 µg/mL
C[C@@H]1[C@H]2C[C@@H](C[C@H]1NCCN[C@H]1C[C@H]3CC[C@]1(C)C3(C)C)C2(C)C ; measure: MIC ; result: 12.5 µM
C=CCN(CCNC(C)Cc1ccc(Cl)cc1)C1CCCC1 ; measure: MIC ; result: 50 µM